Tested on: Venezuelan equine encephalitis virus
Test: Anti-viral activity against VEEV infected in human NHDF cells assessed as reduction in viral titer incubated with cells for 1 hr followed by viral infection for 2 hrs and subsequent replacement of fresh media with compound measured after 24 hrs post-infection by extracting viral supernatant from …
Settings: dose 0.01-100 µM, time 25.0 hrs

O=C(N1CCC2(CC1)CC(CN1CCCCS1(=O)=O)CCO2)C1(c2ccccc2)CCCC1 (stereo unspecified)
Activity: Dose-dependent-effect
